Reference: ChEMBL document CHEMBL4819124, “Folate-targeted verrucarin A reduces the number of activated macrophages in a mouse model of acute peritonitis” (Bioorg Med Chem Lett, 2021)

Protein sequences, listed by entry. Tags and fused reporters are not part of them. Residues count along the entry.
UniProt P15328, 25-234 limits assumed: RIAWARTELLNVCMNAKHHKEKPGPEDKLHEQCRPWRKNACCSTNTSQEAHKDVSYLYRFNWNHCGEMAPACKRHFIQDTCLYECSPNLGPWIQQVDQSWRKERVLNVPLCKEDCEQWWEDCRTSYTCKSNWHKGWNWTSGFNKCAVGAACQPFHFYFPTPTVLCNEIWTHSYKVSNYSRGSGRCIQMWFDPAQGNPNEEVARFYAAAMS
UniProt P14207, 17-230 limits assumed: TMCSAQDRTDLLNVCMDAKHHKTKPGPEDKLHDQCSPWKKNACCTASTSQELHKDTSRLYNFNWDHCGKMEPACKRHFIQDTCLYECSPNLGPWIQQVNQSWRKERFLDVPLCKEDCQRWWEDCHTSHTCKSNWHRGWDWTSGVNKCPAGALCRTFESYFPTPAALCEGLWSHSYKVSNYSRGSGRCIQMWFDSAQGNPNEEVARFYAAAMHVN

What was measured:
Folate receptor alpha = Folate receptor alpha (Homo sapiens, UniProt P15328); conditions: kb
Folate receptor beta = Folate receptor beta (Homo sapiens, UniProt P14207); conditions: raw264.7

CC1=C[C@H]2O[C@@H]3C[C@H]4OC(=O)/C=C\C=C\C(=O)OCC[C@@H](C)[C@H](OC(=O)OCCSSC[C@H](NC(=O)[C@H](CC(=O)O)NC(=O)[C@H](CC(=O)O)NC(=O)[C@H](CCCNC(=N)N)NC(=O)[C@H](CC(=O)O)NC(=O)CC[C@H](NC(=O)c5ccc(NCc6cnc7nc(N)[nH]c(=O)c7n6)cc5)C(=O)O)C(=O)O)C(=O)OC[C@@]2(CC1)[C@]4(C)[C@]31CO1
IC50 (Folate receptor alpha): 6.9 nM | IC50 (Folate receptor beta): 1.5 nM
